# Assay results: patent US20090221523A1 (priority 2005, published 2009)
# System: TK+ and TK− strains of HSV-1
# Type: cell-based, herpes simplex virus
SMILES,HSV-1 EC50 ratio,HSV-1 Ratio (EC50 ratio for TK− and TK+ viruses)
"O=c1[nH]c(=O)n([C@@H]2O[C@H](CO)[C@@H](O)[C@@H]2F)cc1I [FIAU, fialuridine]",133 and 78,
"O=c1[nH]c(=O)n([C@H]2C[C@H](O)[C@@H](CO)O2)cc1I [IDU, idoxuridine]",26,26
"O=c1[nH]c(=O)n([C@H]2C[C@H](O)[C@@H](CO)O2)cc1C(F)(F)F [TFT, trifluridine]",1.1,
"Nc1nc(=O)n([C@@H]2O[C@H](CO)[C@@H](O)[C@@H]2F)cc1I [FIAC, fiacitabine]",78 and 133,
"Nc1nc2c(ncn2COCCO)c(=O)[nH]1 [ACV, acyclovir]",286 and >286,333
"O=c1[nH]c(=O)n([C@H]2C[C@H](O)[C@@H](CO)O2)cc1Br [BrdU, 5-bromodeoxyuridine]",24,
"O=c1[nH]c(=O)n([C@@H]2O[C@H](CO)[C@@H](O)[C@@H]2O)cc1/C=C/Br [BVAU, sorivudine]",>2000,
"O=c1[nH]c(=O)n([C@H]2C[C@H](O)[C@@H](CO)O2)cc1F [FdU, 5-fluorodeoxyuridine]",1.8,
"O=c1[nH]c(=O)n([C@H]2C[C@H](O)[C@@H](CO)O2)cc1/C=C/Br [BVDU, brivudin]",1111,
"Nc1ncnc2c1ncn2[C@@H]1O[C@H](CO)[C@@H](O)[C@@H]1O [AraA, vidarabine]",0.78,

# Values joined by “and” are separate entries in the source; they are usually repeats but may differ in a detail not shown here. Equal values may be shown once.
